Anti-infective test results gathered from many reports (values: NIAID ChemDB through PubChem).

All rows: tests in culture

Percent inhibition refers to the dose given; in toxicity tests it is the harm to the cells.

| structure | measure | dose | organism | conditions | method | changes | cell line | strain or isolate | result |
|---|---|---|---|---|---|---|---|---|---|
| O=C(Nc1ccc(Br)cc1)c1cc(Cl)ccc1OP(=O)(Oc1ccccc1)Oc1ccccc1 | MIC | - | Mycobacterium kansasii | 21 d | - | - | - | My 6509/96 | 8 µM |
| O=C1C=CN([C@@H]2O[C@H](CO)[C@@H](O)[C@H]2O)C(=O)C1 | EC50 | - | West Nile virus | - | cytopathic effect | - | VERO | Uganda | 40 µg/mL |
| CCO/N=C/c1ccc(OCCC2CCN(c3ccc(C)nn3)CC2)cc1 | EC50 | - | Rhinovirus | - | neutral red | - | KB | FO 1-3774 (ICAM-1 receptor group 54) | 0.19 µM |
| CO[C@@H]1[C@H](OC(=O)NC(=O)CCl)CC[C@]2(CO2)[C@H]1[C@@]1(C)O[C@@H]1CC=C(C)C | inhibition | 0.0001 µg/mL | Vittaforma corneae | - | - | - | RK-13 | - | 35.8% |
| O=C(Nc1ccc(Cl)c(Cl)c1)c1cc(Cl)ccc1OP(=O)(c1ccccc1)c1ccccc1 | MIC | - | Mycobacterium kansasii | 21 d | - | - | - | My 6509/96 | 8 µM |
| O=c1cnn([C@@H]2O[C@H](CO)[C@@H](O)[C@H]2O)c(=O)[nH]1 | EC50 | - | West Nile virus | - | virus yield | - | MA-104 | NEW YORK | <0.3 µg/mL |
| COc1cc2oc(=O)ccc2cc1CC(O)C(C)(C)O | MIC | - | Staphylococcus epidermidis | - | - | - | - | - | 15.6 µg/mL |
| CC[C@H]1OC(=O)[C@H](C)[C@@H](O[C@H]2C[C@@](C)(OC)[C@@H](O)[C@H](C)O2)[C@H](C)[C@@H](O[C@@H]2O[C@H](C)C[C@H](N(C)C)[C@H]2O)[C@](C)(OC)C[C@@H](C)C(=O)[C@H](C)[C@@H](O)[C@]1(C)O | MIC50 | - | Staphylococcus aureus | - | - | - | - | 20 strains (methicillin-susceptible) | 0.0625 µg/mL |
| O=C1c2cc(Cl)ccc2OP(=O)(c2ccccc2)N1c1ccc(Cl)cc1 | MIC | - | Mycobacterium kansasii | 7 d | - | - | - | My 235/80 | 8 µM |
| CC[C@H]1OC(=O)[C@H](C)[C@@H](O[C@H]2C[C@@](C)(OC)[C@@H](O)[C@H](C)O2)[C@H](C)[C@@H](O[C@@H]2O[C@H](C)C[C@H](N(C)C)[C@H]2O)[C@](C)(OC)C[C@@H](C)C(=O)[C@H](C)[C@@H](O)[C@]1(C)O | MIC | - | Mycobacterium massiliense | - | broth dilution | - | - | X21 | 0.25 µg/mL |
| CCCCCCCCCCCCCCCCCCCCCCOCC(C)(COCCCCCCCCCCCCCCCCCCCCCC)CO[C@]1(C(=O)O)C[C@H](OS(=O)(=O)O)[C@@H](NC(C)=O)[C@H]([C@H](OS(=O)(=O)O)[C@@H](COS(=O)(=O)O)OS(=O)(=O)O)O1 | EC50 | - | Respiratory syncytial virus | - | plaque count | - | HEP-2 | K686 | 0.12 µM |
| NC12CC3CC(CC(C3)C1)C2 | EC50 | - | Influenza A virus | - | plaque count | - | MDCK | H3N2 AICHI/2/68 | 0.63 µg/mL |
| Nc1ccn(C[C@@H](CO)OCP(=O)(O)O)c(=O)n1 | EC50 | - | Adenovirus | - | cytopathic effect | - | - | 13306 (TYPE 8) | 13 µg/mL |
| CO[C@H]1/C=C/O[C@@]2(C)Oc3c(C)c(O)c4c(O)c(c(/C=N/N5CCN(C)CC5)c(O)c4c3C2=O)NC(=O)/C(C)=C\C=C\[C@H](C)[C@H](O)[C@@H](C)[C@@H](O)[C@@H](C)[C@H](OC(C)=O)[C@@H]1C | MIC50 | - | Staphylococcus aureus | - | - | - | - | 20 strains (methicillin-susceptible) | 0.0039 µg/mL |
| Nc1ccn([C@@H]2C[C@H](CO)[C@@H](O)[C@H]2O)c(=O)n1 | EC50 | - | Vesicular stomatitis virus | - | cytopathic effect | - | VERO | - | 7 µg/mL |
| O=C1c2cc(Br)ccc2OP(=O)(c2ccccc2)N1c1ccc(C(F)(F)F)cc1 | MIC | - | Mycobacterium kansasii | 14 d | - | - | - | My 235/80 | 8 µM |
| Nc1ccnc2c1ncn2[C@H]1C=C[C@@H](OCP(=O)(O)O)O1 | EC90 | - | Adenovirus | - | virus yield | - | - | WT 300 (TYPE 5) | 16 µg/mL |
| COc1ccc2cc3[n+](cc2c1OC)CCc1cc2c(cc1-3)OCO2 | inhibition | 0.1 µg/mL | Encephalitozoon intestinalis | - | - | - | RK-13 | - | 47% |
| O=C(Nc1ccccc1)c1ccccc1OP(=O)(Oc1ccccc1)Oc1ccccc1 | MIC | - | Mycobacterium kansasii | 21 d | - | - | - | My 235/80 | 500 µM |
| CCOC(=O)Nc1nc(NC(=O)OCC)c2c(c1N)NC(C)C(c1ccccc1)=N2 | inhibition | 1 µg/mL | Encephalitozoon intestinalis | - | - | - | RK-13 | - | 13.2% |
| O=C(Nc1ccc(Cl)cc1)c1cc(Cl)ccc1OP(=O)(Oc1ccccc1)Oc1ccccc1 | MIC | - | Mycobacterium kansasii | 21 d | - | - | - | My 235/80 | 8 µM |
| CC1(C)[C@@H](O[C@H]2O[C@H](C(=O)O)[C@@H](O)[C@H](O)[C@H]2O[C@@H]2O[C@H](C(=O)O)[C@@H](O)[C@H](O)[C@H]2O)CC[C@]2(C)[C@H]3C(=O)C=C4[C@@H]5C[C@@](C)(C(=O)O)CC[C@]5(C)CC[C@@]4(C)[C@]3(C)CC[C@@H]12 | EC50 | - | Dengue virus | - | cytopathic effect | - | VERO | TYPE 4 (YUNH) | 632.7 µg/mL |
| CC(C)(CO)C(=O)SCCOP(=O)(NCc1ccccc1)OC[C@H]1O[C@@H](n2cnc3c(=O)[nH]c(N)nc32)[C@](C)(O)[C@@H]1O | fold resistance | - | Hepatitis C virus | - | replicon | M28T | Replicon cells | GT1a | 1.06 |
| O=C(Nc1ccc(C(F)(F)F)cc1)c1cc(Br)ccc1OP(=O)(c1ccccc1)c1ccccc1 | MIC | - | Mycobacterium kansasii | 7 d | - | - | - | My 6509/96 | 4 µM |
| C[C@H](Cc1ccc(O)c(O)c1)[C@@H](C)Cc1ccc(O)c(O)c1 | MIC80 | - | Candida colliculosa | - | broth dilution | - | - | CCC 122-2000 | 250 µg/mL |
| Nc1ccn([C@@H]2C=C(CO)[C@@H](O)[C@@H]2O)c(=O)n1 | EC50 | - | West Nile virus | - | cytopathic effect / visual reading | - | MA-104 | NEW YORK | 0.3 µg/mL |
| Nc1ncnc2c1ncn2C[C@@H](CO)OCP(=O)(O)O | EC50 | - | Adenovirus | - | cytopathic effect | - | - | TRIM (TYPE 8) | 2 µg/mL |
| Cc1ccc(C(=O)Nc2ccc(S(=O)(=O)O)c3cc(S(=O)(=O)O)cc(S(=O)(=O)O)c23)cc1NC(=O)c1cccc(NC(=O)Nc2cccc(C(=O)Nc3cc(C(=O)Nc4ccc(S(=O)(=O)O)c5cc(S(=O)(=O)O)cc(S(=O)(=O)O)c45)ccc3C)c2)c1 | EC50 | - | West Nile virus | - | cytopathic effect / visual reading | - | VERO | NEW YORK | 119 µg/mL |
| CCOC(=O)Nc1cc2c(c(N)n1)N=C(c1ccc3ccccc3c1)CS2 | inhibition | 0.01 µg/mL | Encephalitozoon intestinalis | - | - | - | RK-13 | - | 1.8% |
| CN(C)[C@@H]1C(=O)C(C(N)=O)=C(O)[C@@]2(O)C(=O)C3=C(O)c4c(O)c(NC(=O)CN5CCOCC5)cc(F)c4C[C@H]3C[C@@H]12 | MIC | - | Enterococcus faecalis | - | agar diffusion | - | - | 103-29212 | 8 µg/mL |
| O=C(Nc1ccc(C(F)(F)F)cc1)c1cc(Cl)ccc1OP(=O)(Oc1ccccc1)Oc1ccccc1 | MIC | - | Mycobacterium kansasii | 14 d | - | - | - | My 6509/96 | 4 µM |
| COc1c(C)c2c(c(O)c1CC(=O)O)C(=O)OC2 | EC50 | - | Mumps virus | - | plaque count | - | VERO | ECXH-3 | 0.82 µg/mL |
| CCC(C)n1ncn(-c2ccc(N3CCN(c4ccc(OC[C@H]5CO[C@](Cn6cncn6)(c6ccc(Cl)cc6Cl)O5)cc4)CC3)cc2)c1=O | MIC | - | Candida albicans | - | - | - | - | Isogenic isolate 16 CDR | 0.25 µg/mL |
| CN(C)c1cc(NC(=O)CNC(C)(C)C)c(O)c2c1C[C@H]1C[C@H]3[C@H](N(C)C)C(=O)C(C(N)=O)=C(O)[C@@]3(O)C(=O)C1=C2O | MIC | - | Mycobacterium massiliense | - | broth dilution | - | - | X13 | 2 µg/mL |
| COc1cc(Cc2cnc(N)nc2N)cc(OC)c1OC | MIC | - | Mycobacterium ulcerans | - | - | - | - | Isolate 5143 | >16 µg/mL |
| NC(=O)c1csc([C@@H]2O[C@H](COP(=O)(O)CP(=O)(O)OC[C@H]3O[C@@H](n4cnc5c(N)ncnc54)[C@H](O)[C@@H]3O)[C@@H](O)[C@H]2O)n1 | EC50 | - | West Nile virus | - | cytopathic effect | - | VERO | Uganda | 53 µg/mL |
| CCOC(=O)Nc1cc2[nH]c(-c3ccc(OC)cc3)nc2c(NC(c2ccccc2)c2ccccc2)n1 | inhibition | 1 µg/mL | Encephalitozoon intestinalis | - | - | - | RK-13 | - | 51.5% |
| CCOc1cc(Cc2cnc(N)nc2N)cc(OCC)c1-n1cccc1 | MIC | - | Mycobacterium ulcerans | - | - | - | - | Isolate 5155 | 0.5 µg/mL |
| C#CC[C@@H](C(=O)N[C@H](/C=C/C(=O)OCC)C[C@@H]1CCNC1=O)n1cccc(NC(=O)c2cc(C)on2)c1=O | inhibition | 0.204 µM | Rhinovirus | - | cytopathic effect / XTT | - | H1-HELA | Serotype 14 | 90% |
| O=C(NC(=O)c1c(F)cccc1F)Nc1cc(Cl)c(OC(F)(F)C(F)C(F)(F)F)cc1Cl | inhibition | 10 µg/mL | Encephalitozoon intestinalis | - | - | - | RK-13 | - | 61.8% |

For reference, 4 entries again:

structure | measure | dose | organism | conditions | method | changes | cell line | strain or isolate | result
Nc1ccnc2c1ncn2[C@H]1C=C[C@@H](OCP(=O)(O)O)O1 | EC90 | - | Adenovirus | - | virus yield | - | - | WT 300 (TYPE 5) | 16 µg/mL
CCOc1cc(Cc2cnc(N)nc2N)cc(OCC)c1-n1cccc1 | MIC | - | Mycobacterium ulcerans | - | - | - | - | Isolate 5155 | 0.5 µg/mL
C#CC[C@@H](C(=O)N[C@H](/C=C/C(=O)OCC)C[C@@H]1CCNC1=O)n1cccc(NC(=O)c2cc(C)on2)c1=O | inhibition | 0.204 µM | Rhinovirus | - | cytopathic effect / XTT | - | H1-HELA | Serotype 14 | 90%
O=C1c2cc(Br)ccc2OP(=O)(c2ccccc2)N1c1ccc(C(F)(F)F)cc1 | MIC | - | Mycobacterium kansasii | 14 d | - | - | - | My 235/80 | 8 µM

ECn is the concentration giving n% inhibition of infection, replication or growth. Fold resistance: result on the changed form divided by that on wild type. Conditions beyond the fields shown may differ between rows. An empty or dashed field is not shown. MIC50, MIC90 and the like: level of inhibition, or share of isolates inhibited.